Source: PubChem BioAssay AID624099 (ICCB-Longwood, 2012)

Test: 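Host factors E2 relies on to silence an HPV18 LCR reporter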 (primary screen)
Cell system: human C33A cervical carcinoma cells (HPV-negative) stably expressing BPV1 E2 and an HPV18 LCR luciferase reporter
Reagent: siRNA pool against human genes, 40 nM
Timing: 72 h
Detection: 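Per-well luciferase luminescence, z-scored on each plate against the plate mean and SD with control wells left out, then averaged across three replicate plates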
Direction: mean z-score and z-score: higher = stronger reporter signal, weaker E2 silencing
Call rule: 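Mean z ≥ 2 together with z ≥ 2 in two or more of the three replicates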
Shown is an unselected part of about 21,000 reagents. In the full data, 497 (2.4%) are marked active. 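Higher z means weaker E2 silencing; only reporter increases were scored, and knock-downs that hurt cell survival may mask genuine repressor factors.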

SPCS2P1: mean z-score = 0.52; z-score, replicate A = -0.15; z-score, replicate B = 0.71; z-score, replicate C = 0.99; activity call = inactive
ZNF655: mean z-score = 0.72; z-score, replicate A = 0.8; z-score, replicate B = 0.77; z-score, replicate C = 0.59; activity call = inactive
TRPT1: mean z-score = -0.86; z-score, replicate A = -1.31; z-score, replicate B = -0.57; z-score, replicate C = -0.71; activity call = inactive
PLAC8: mean z-score = -0.48; z-score, replicate A = -0.11; z-score, replicate B = -0.7; z-score, replicate C = -0.65; activity call = inactive
LOC389815 (retired record): mean z-score = -0.12; z-score, replicate A = 0.29; z-score, replicate B = -0.17; z-score, replicate C = -0.49; activity call = inactive
HOXD4: mean z-score = 0.04; z-score, replicate A = 0.21; z-score, replicate B = -0.22; z-score, replicate C = 0.12; activity call = inactive
PLEKHG1: mean z-score = -1.73; z-score, replicate A = -1.74; z-score, replicate B = -1.81; z-score, replicate C = -1.63; activity call = inactive
LOC389988 (retired record): mean z-score = -0.92; z-score, replicate A = -0.81; z-score, replicate B = -1.24; z-score, replicate C = -0.71; activity call = inactive
GBP7: mean z-score = -0.21; z-score, replicate A = -0.26; z-score, replicate B = -0.34; z-score, replicate C = -0.03; activity call = inactive
PIH1D2: mean z-score = 1.33; z-score, replicate A = 1.41; z-score, replicate B = 1.6; z-score, replicate C = 0.98; activity call = inactive
AFG2B: mean z-score = 3.14; z-score, replicate A = 3.21; z-score, replicate B = 2.88; z-score, replicate C = 3.32; activity call = active
TTC12: mean z-score = 1.24; z-score, replicate A = 1.45; z-score, replicate B = 1.35; z-score, replicate C = 0.93; activity call = inactive
SCNN1G: mean z-score = 0.66; z-score, replicate A = 0.45; z-score, replicate B = 0.97; z-score, replicate C = 0.57; activity call = inactive
LOC130063 (retired record): mean z-score = -0.04; z-score, replicate A = 0.01; z-score, replicate B = -0.03; z-score, replicate C = -0.11; activity call = inactive
ITGA1: mean z-score = -0.69; z-score, replicate A = -0.89; z-score, replicate B = -0.44; z-score, replicate C = -0.74; activity call = inactive
SMPX: mean z-score = -0.17; z-score, replicate A = -0.45; z-score, replicate B = -0.08; z-score, replicate C = 0.01; activity call = inactive
GLRX5: mean z-score = -0.04; z-score, replicate A = 0.25; z-score, replicate B = -0.2; z-score, replicate C = -0.18; activity call = inactive
CBL: mean z-score = -0.65; z-score, replicate A = -0.38; z-score, replicate B = -0.81; z-score, replicate C = -0.76; activity call = inactive
GPR26: mean z-score = 0.87; z-score, replicate A = 0.88; z-score, replicate B = 0.9; z-score, replicate C = 0.83; activity call = inactive
RPSAP27: mean z-score = -0.16; z-score, replicate A = -0.27; z-score, replicate B = -0.21; z-score, replicate C = 0.01; activity call = inactive
SERINC3: mean z-score = -0.43; z-score, replicate A = -0.21; z-score, replicate B = -0.49; z-score, replicate C = -0.58; activity call = inactive
SPINK14: mean z-score = 0.24; z-score, replicate A = -0.28; z-score, replicate B = 1.17; z-score, replicate C = -0.18; activity call = inactive
LOC389370 (retired record): mean z-score = -0.32; z-score, replicate A = -0.36; z-score, replicate B = -0.24; z-score, replicate C = -0.35; activity call = inactive
METTL21C: mean z-score = 0.98; z-score, replicate A = 1.53; z-score, replicate B = 0.58; z-score, replicate C = 0.84; activity call = inactive
CHST1: mean z-score = -0.86; z-score, replicate A = -0.81; z-score, replicate B = -0.77; z-score, replicate C = -0.99; activity call = inactive
TMC3: mean z-score = 0.71; z-score, replicate A = 0.66; z-score, replicate B = 0.54; z-score, replicate C = 0.94; activity call = inactive
COL20A1: mean z-score = -1.38; z-score, replicate A = -1.2; z-score, replicate B = -1.2; z-score, replicate C = -1.74; activity call = inactive

Called active, among the entries above:
AFG2B: mean z-score = 3.14; z-score, replicate A = 3.21; z-score, replicate B = 2.88; z-score, replicate C = 3.32; activity call = active
